Test results published in the supplement of paper PMC9931576.
Human monoclonal antibodies against the spike receptor-binding domain (heavy:light variable regions). IC50 against pseudoviruses bearing the spike of naturally observed variants; lower = stronger; >10 µg/ml means not reached at the top dose. No active / inactive call. The stated detection limit is 0.0005 µg/ml; values near or below 0.001 µg/ml lie at the floor of the assay.

Assays:
Assay in all cases: pseudovirus neutralization IC50; higher = weaker neutralization
[1] = biological target: SARS-CoV-2 Omicron BA.1 spike pseudovirus
Experimental: (§1)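 Single-round VSV luciferase pseudovirus mixed with antibody dilutions for 1 h and put on Huh-7 cells for about a day; IC50 from the dose curve.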

[2] = biological target: SARS-CoV-2 Omicron BA.2 spike pseudovirus
Experimental: as §1

[3] = biological target: SARS-CoV-2 Omicron BA.2.75 spike pseudovirus
Experimental: as §1

[4] = biological target: SARS-CoV-2 Omicron BA.5 spike pseudovirus
Experimental: as §1

[5] = biological target: SARS-CoV-2 Omicron BQ.1.1 spike pseudovirus
Experimental: as §1

[6] = biological target: SARS-CoV-2 Omicron XBB spike pseudovirus
Experimental: as §1

[7] = biological target: SARS-CoV-2 early D614G spike pseudovirus
Experimental: as §1

Row | Binder | pseudovirus neutralization IC50 [1] | pseudovirus neutralization IC50 [2] | pseudovirus neutralization IC50 [3] | pseudovirus neutralization IC50 [4] | pseudovirus neutralization IC50 [5] | pseudovirus neutralization IC50 [6] | pseudovirus neutralization IC50 [7]
1 | BD55-859 (protein) chain 1: QVQLQESGPGLVKPSGTLSLTCAVSGDSITSTNWWSWLRQPPGKGLEWIGEIYHSGYTNYNPSLTSRVTILVDSSKNHFSLKLTSVTAADTAVYYCARRFGSFGTYYSDYWGQGTLVTVSS chain 2: IQLTQSPSSLSASVGDRVTITCRASQGISNYLVWYQQKPGKAPNLLIYAASTLQSGVPSRFSGSGSGTDFTLAISSLQPEDFATYYCQQVDSYPFTFGPGTKVDIK | > 10 µg/mL | > 10 µg/mL | > 10 µg/mL | > 10 µg/mL | > 10 µg/mL | > 10 µg/mL | > 10 µg/mL
2 | BD-670 (protein) chain 1: QVQLVESGGGVVQPGRSLRLSCAASGFTFTDYILNWVRQAPGKGPEWLAVISYDGNNYYYTDSVKGRFTISRDTSKNTLYLQMNNLRPEDTAIYYCVRCPPPRSWFYFDYWGQGTLVTVSS chain 2: DIQMTQSPSTLSASVGDRVTITCRASQNVVSWLAWYQQKPGKAPKVLIYEASSLETGVPSRFSGSGSGTEFTLTISSLQPDDIATYYCQQYNSYSTFGQGTKVEVK | > 10 µg/mL | > 10 µg/mL | > 10 µg/mL | > 10 µg/mL | > 10 µg/mL | > 10 µg/mL | 0.493 µg/mL
3 | BD55-853 (protein) chain 1: QVQLQESGPGLVKPSETLSLTCTVSGGSINYYYWSWIRQPPGKGLEWIGYIYYSGSTNYNPSLKSRVTISVDTSKDQFSLKLSSVTAADTAVYYCASYGGHNYNWFDPWGQGTLVTVSS chain 2: QSVLTQPPSVSAAPGQKVTISCSGSSSNIENNFVSWYQQLPGTAPKLLIYDNNKRPSGIPDRFSGSKSGTSATLGITGLQTGDEADYYCGTWDSSLSAVVFGGGTKLTVL | > 10 µg/mL | > 10 µg/mL | > 10 µg/mL | > 10 µg/mL | > 10 µg/mL | > 10 µg/mL | 0.0086 µg/mL
4 | BD-694 (protein) chain 1: EVQLVESGGGLVKPGGSLRLSCAASGFTFSLAYMSWVRQAPGKGLEWVGRIKSKTEGGTIDYAAPVKGRFTISRDDSRNTLYLQMNSLKTEDTAVYYCTTSIHAREPRPPNAFDIWGQGTMVTVSS chain 2: QSVLTQPPSVSEAPRQRVTISCSGSSSNIGNNAVNWYQQLPGKAPKLLIYYDDLLPSGVSDRFSGSKSGTSASLAISGLQSEDEADYYCAAWDDSLNGYVFGTGTKVTVL | > 10 µg/mL | > 10 µg/mL | > 10 µg/mL | > 10 µg/mL | > 10 µg/mL | > 10 µg/mL | 0.394 µg/mL
5 | BD-695 (protein) chain 1: EVQLVESGGGLVQPGKSLRLSCAASGFTFDDYAMHWVRQAPGKGLEWISTINWDHGSVDYADSVRGRFTISRDNAKKSLYLQMSSLRAEDTALYYCTKDMGWGGVVTGLGGQFEYWGQGTLVTVSS chain 2: DIQMTQSPSSLSASVGDRVTITCRASQTISTYLNWYQQKPGKAPKLLIYNAISLQSGVPSRFSGSGSGTDFTLTISSLQPEDFATYYCQQSYSTPRETFGQGTKVEIK | > 10 µg/mL | > 10 µg/mL | > 10 µg/mL | > 10 µg/mL | > 10 µg/mL | > 10 µg/mL | > 10 µg/mL
6 | BD55-818 (protein) chain 1: QVQLVQSGAEVKKPGSSVKVSCKASGGTFSSYAISWVRQAPGQGLEWMGRIIPMLGIADYAQKFQGRVTITADKSTRAYMELSSLRSEDTAVYYCARVGNDYGANSEWFDPWGQGTLVTVSS chain 2: QSLLTQPPSVSGAPGQRVTISCTGSSSNIGAGYDVHWYQQLPGIAPKLLIYGNSNRPSGVPDRFSGSKSGTSASLAITGLQAEDEADYYCQSYDSSLSGVVFGGGTKLTVL | > 10 µg/mL | > 10 µg/mL | > 10 µg/mL | > 10 µg/mL | > 10 µg/mL | > 10 µg/mL | > 10 µg/mL
7 | BD55-846 (protein) chain 1: QVQLVESGGGLVKPGGSLRLSCAASGFTFRDYYMSWIRQAPGKGLEWVSYISSSGSTIYYADSVKGRFTISRDNGKNSLYLEMNSLRAEDTAVYYCARSFESGGDCYSDYWGQGTLVTVSS chain 2: SYELTQPPSVSVSPGQTARITCSGDALPKQYAYWYQQKPGQAPVLVIYKDSERPSGIPERFSGSSSGTTVTLTISGVQAEDEADYYCQSADSSGVVFGGGTKLTVL | > 10 µg/mL | > 10 µg/mL | > 10 µg/mL | > 10 µg/mL | > 10 µg/mL | > 10 µg/mL | > 10 µg/mL
8 | BD55-876 (protein) chain 1: QVHLVQSGAEVKKPGASVKVSCKASGYTFTDHYIHWVRQAPGQGLEWMGWINPNSGGTNYAQKFQGRVTMTRDTSISTAFMELSRLRSDDTAVYYCARHQSSNYFDSSGLDYWGQGNLVTVSS chain 2: QSALTQPRSVSGSPGQSVTISCTGTSSDVGTYNYVSWYQQHPGKAPKLMIYDVTERPSGVPDRFSGSKSGNTASLTISGLQAEDEADYYCCSYAGSYTVFGGGTKLTVL | > 10 µg/mL | > 10 µg/mL | > 10 µg/mL | > 10 µg/mL | > 10 µg/mL | > 10 µg/mL | > 10 µg/mL
9 | BD55-81 (protein) chain 1: EVQLVQSGAEVKKPGESLNISCKGSGYTFTTYWIGWVRQMPGKGLEWMGIIYPGDSNTRYSPSFQGQVTISADKSISTAYLQWSSLKASDTAMYYCARHRIRFLPNDGFDVWGQGTMVTVSS chain 2: QSALTQPASVSGSPGQSITISCTGASIGVGGYKFVSWYQQHPGKAPKLMIYDVNNRPSGVSNRFSGSKSGSTASLTISGLQAEDEADYYCSSYTSTTKHFGGGTKLTVL | > 10 µg/mL | > 10 µg/mL | > 10 µg/mL | > 10 µg/mL | > 10 µg/mL | > 10 µg/mL | > 10 µg/mL
10 | BD55-875 (protein) chain 1: QVQLVESGGGVVQPGRSLRLSCAASGFTFSTFAMHWVRQAPGKGLEWVAVISYDGSYKYYADSVKGRFTISRDNSNNTLYLEMTSLRTEDTAVYYCAKEADFDWLLDTFDYWGQGILVTVSS chain 2: DIVMTQSPDSLAVSLGERATIRCKSSQSVLHNSNKKNYLAWFQQKPGQPPKLLLYWASTRESGVPDRFSGSGSETDFTLTISSLQAEDVAVYYCQQYYNTPPYTFGQGTKLEIK | > 10 µg/mL | > 10 µg/mL | > 10 µg/mL | > 10 µg/mL | > 10 µg/mL | > 10 µg/mL | > 10 µg/mL
11 | BD55-829 (protein) chain 1: QLQLQESGPGLLKPSETLSLICTVSGDSISSRCDYWGWIRQAPGKGLEWIGSIYYSGATYYTPSLKSRVTISVDTSTNQFSLRLNSVTAADTAVYYCAREKGHCSSWGGVYFDYWGQGALVTVSS chain 2: QSVLTQPPSVSGAPGQRVTISCIGSSSIGAGYDVHWYQQLPGIPPKLLIYGNNNRPSGVPDRFSGSKSGTSASLAITGRQAEDEADYFCQSYDTSLTARVFGGGTKLTVL | > 10 µg/mL | > 10 µg/mL | > 10 µg/mL | > 10 µg/mL | > 10 µg/mL | > 10 µg/mL | > 10 µg/mL
12 | BD55-870 (protein) chain 1: EVQLVESGGGLVQPGRSLRLSCAASGFTFDDFAMHWVRQAPGKGLEWVSGITWNGGVIGYGDSVKGRFTISRDNAKNSLFLQMRSLRTDDTAFYYCVKDFRATVTTGWFDPWGQGTLVTVSS chain 2: QSVLTQPPSASGTPGQRVTISCSGSSSNIGREIVNWYQQLPGTAPKLLIYSNNQRPSGVPDRFSGSKSGTSASLAISGLQSEDEADYYCSAWDDSLSGWVFGGGTKLTVL | > 10 µg/mL | > 10 µg/mL | > 10 µg/mL | > 10 µg/mL | > 10 µg/mL | > 10 µg/mL | > 10 µg/mL
